Values of other authors in paper PMC6838151, “New diphenylphosphane derivatives of ketoconazole are promising antifungal agents” (Scientific Reports, 2019).

Test system: HepG2 cells
Settings: cited from earlier work

## CC(=O)N1CCN(c2ccc(OCC3COC(Cn4ccnc4)(c4ccc(Cl)cc4Cl)O3)cc2)CC1 (stereo not shown) [Ke, ketoconazole]
  concentration at which cytotoxic effects started to be noticed: 50 µM
